In patent US5665357, “Antibodies recognizing tumor associated antigen CA 55.1” (dated 1997) one finds IC50 against COLO 205 cells (cytotoxicity) data, which are given here for one substance.

The test concerns the target tumour associated antigen CA55.1 (human (COLO 205 human colorectal carcinoma cell line)).

“55.1:ricin A immunotoxin (antibody 55.1 conjugated to recombinant ricin A) (from UniProt P02879)”: the IC50 against COLO 205 cells (cytotoxicity) stood at 10 pM.
